A mixed list of measured activities; the numbers were collected in NIAID ChemDB.

Shared fields: enzyme or target tests

ICn is the concentration giving n% inhibition. Inhibition is in % at the dose shown (toxicity tests: loss of growth or viability). Rows are shuffled and stem from different studies. Fold resistance: result on the changed form divided by that on wild type. An empty or dashed field is not shown.

CCCCC(CC)CNc1nnc(NC(=O)c2ccc3c(c2)C(=O)OC3=O)s1 ; protein: Polymerase ; species: Human cytomegalovirus ; measure: IC50 ; result: <25 µM
Cc1cn([C@H]2C=C[C@@H](COP(=O)(O)OP(=O)(O)OP(=O)(O)O)O2)c(=O)[nH]c1=O ; mutations: RT-N137E ; protein: Reverse transcriptase ; method: nucleotide incorporation / radiometric ; species: HIV ; measure: fold resistance ; result: 0.2
CCOc1ccc2ccccc2c1C(=O)Nc1nnc(NCc2ccc3c(c2)OCO3)s1 ; protein: Polymerase ; species: Human cytomegalovirus ; measure: IC50 ; result: <25 µM
O=C(c1ccccc1Cl)N1C[C@H](CN2CCC(O)(CCCc3ccc(-c4nn[nH]n4)cc3)CC2)[C@@H](c2ccccc2)C1 ; protein: CCR5 ; method: radiometric ; measure: IC50 ; result: 0.011 µM
O=C(O)c1cc(=O)[nH]c(=O)[nH]1 ; protein: Uracil phosphoribosyltransferase ; species: Toxoplasma gondii ; measure: IC50 ; strain or isolate: RH ; result: >2000 µM
O=C(Nc1nnc(NCc2ccc(F)cc2)s1)c1ccc2c(c1)C(=O)OC2=O ; protein: Polymerase ; species: Human cytomegalovirus ; measure: IC50 ; result: <25 µM
O=c1cc(Cl)[nH]c(=O)[nH]1 ; protein: Uracil phosphoribosyltransferase ; species: Toxoplasma gondii ; measure: IC50 ; strain or isolate: RH ; result: >2000 µM
CCN(C(=O)OCc1ccccc1)C1CCN(CC[C@](C)(CN(C)S(=O)(=O)c2ccccc2)c2ccccc2)CC1 ; mutations: CCR5-W86A ; protein: CCR5 ; method: radiometric ; measure: fold resistance ; result: 52.5
c1cnccn1 ; protein: Uracil phosphoribosyltransferase ; species: Toxoplasma gondii ; measure: IC50 ; strain or isolate: RH ; result: >2000 µM
O=C(Nc1nnc(NCCC(c2ccccc2)c2ccccc2)s1)c1ccc(F)cc1F ; protein: Polymerase ; species: Human cytomegalovirus ; measure: IC50 ; result: >25 µM
O=c1[nH]cc(C(F)(F)F)c(=O)[nH]1 ; tested at: 2000 µM ; protein: Uracil phosphoribosyltransferase ; species: Toxoplasma gondii ; measure: inhibition ; strain or isolate: RH ; result: <5%
CC(C)=CCOc1cc(NC(=S)c2ccoc2C)ccc1Cl ; mutations: RT-P140A ; protein: Reverse transcriptase ; method: nucleotide incorporation / radiometric ; species: HIV ; measure: fold resistance ; result: 0.41
C=CCN(C(=O)OCc1ccc([N+](=O)[O-])cc1)C1CCN(CC[C@](C)(CN(C)S(=O)(=O)c2ccccc2)c2ccccc2)CC1 ; mutations: CCR5-D276A ; protein: CCR5 ; method: radiometric ; measure: IC50 ; result: 0.004 µM
Cc1cn([C@@H]2O[C@H](CO[Si](C)(C)C(C)(C)C)[C@@]3(OS(=O)(=O)C=C3N)[C@H]2O[Si](C)(C)C(C)(C)C)c(=O)[nH]c1=O ; mutations: RT-P140A ; protein: Reverse transcriptase ; method: nucleotide incorporation / radiometric ; species: HIV ; measure: fold resistance ; result: 0.67
CCCCn1c(=O)cc[nH]c1=O ; tested at: 2000 µM ; protein: Uracil phosphoribosyltransferase ; species: Toxoplasma gondii ; measure: inhibition ; strain or isolate: RH ; result: <5%

For reference, 2 entries again:

SMILES	tested at	mutations	protein	method	species	measure	strain or isolate	result
O=C(c1ccccc1Cl)N1C[C@H](CN2CCC(O)(CCCc3ccc(-c4nn[nH]n4)cc3)CC2)[C@@H](c2ccccc2)C1	-	-	CCR5	radiometric	-	IC50	-	0.011 µM
CCN(C(=O)OCc1ccccc1)C1CCN(CC[C@](C)(CN(C)S(=O)(=O)c2ccccc2)c2ccccc2)CC1	-	CCR5-W86A	CCR5	radiometric	-	fold resistance	-	52.5